Source: US4909940A, “Extraction of process chemicals from labile biological mixtures with organic alcohols or with halogenated hydrocarbons” (priority 1987, dated 1990)

How the values were obtained:
HIV = experiment: Virus kill in whole plasma: HIV; settings: 2% TNBP at 37° C., 4 hours
VSV = experiment: Virus kill in whole plasma: VSV; assay type: cell-based; settings: 2% TNBP at 37° C. or 1% TNBP/1% detergent at 30° C., 4 hours
HBV = experiment: Virus kill in whole plasma: HBV; settings: 2% TNBP at 37° C., 4 hours
NANBHV = experiment: Virus kill in whole plasma: NANBHV; settings: 2% TNBP at 37° C., 4 hours
Sindbis Virus = experiment: Virus kill in whole plasma: Sindbis virus; assay type: cell-based; settings: 2% TNBP at 37° C. or 1% TNBP/1% detergent at 30° C., 4 hours

CCCCOP(=O)(OCCCC)OCCCC
Virus Kill (log10 decline) (HIV): 3.6 log10 | Virus Kill (log10 decline) (VSV): 4.2 log10 | Virus Kill (log10 decline) (HBV): 6.0 log10 | Virus Kill (log10 decline) (NANBHV): 5.0 log10 | Virus Kill (log10 decline) (Sindbis Virus): 5.2 log10
